For experiment [1], the system named is human coronavirus (HCoV) 229E. To be noted: read-out: 229E CPE EC50, MRCS cells, 3 days, CellTiter Glo.
The next experiment deals with SARS-CoV-2 replicon. Description: SARS-CoV-2 cell-based replicon assay in Huh7 cells (GFP expression). Particulars: read-out: Replicon EC50; Huh7 cells transfected with SARS-CoV-2 replicon RNA, 1 day, inhibition of GFP expression. (In general: Replicon systems follow genome replication, usually without infectious particles.)

In patent US11760722B2 (priority 2022, dated 2023) one finds EC50 data, which are given here for one compound.

Each structure is given as a SMILES string. Structures were worked out from names or drawings and are uncertain.

As usually defined, the EC50 is the midpoint of the concentration-response curve. `CC(C)(C)[C@H](NC(=O)CC12CC3CC(CC(C3)C1)C2)C(=O)N1C[C@H]2[C@@H]([C@H]1C(=O)N[C@H](C#N)C[C@@H]1CCNC1=O)C2(C)C`: the half-maximal effective concentration (EC50) in experiment [1] turned out to be 1700 nM; in the experiment with SARS-CoV-2 replicon, 1250 nM.
